Reference: PubChem BioAssay AID504761 (Drosophila RNAi Screening Center, 2011)
In all, the deposit lists about 22,000 reagents; this is an unselected part of those with a known target gene and a result. In the full data, 116 (0.52%) were called active. 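Calls depend on retest data that are not deposited; infection was ranked per plate without normalising between plates; the unit of the infection score is not given.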 The raw values are shown without normalisation. Unmarked entries are inactive. Not all columns of the deposit are shown. Not given: the amount of reagent, the time to read-out.

- Purpose: 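Insect host genes that dengue virus relies on to spread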 (primary screen)
- Cell system: D.Mel-2 cells from Drosophila
- Reagents: long dsRNA against Drosophila genes
- Conditions: infection with dengue virus type 2; dose and infection time not stated
- Measurement: 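Per well on two replicate plates, imaging gave the percent of cells positive for viral envelope protein, ranked by infection, and a nuclear count of cells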
- Scale: infection score: higher = more virus-infected cells; cell count: higher = more cells in the well
- Rule for the call: 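Very low infection ranking in both replicate wells (chance probability at most 0.065), then a retest showing infection dropped 1.5-fold or more at p below 0.05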
- Meaning of the calls: active = confirmed: knock-down lowers infection; inactive = not picked or not confirmed

For betaTub56D (GeneID 37238) [DRSC07583], the values are infection score, replicate 1 = 6.37; cell count, replicate 1 = 1130. Against betaTub56D (GeneID 37238) [DRSC23516] the deposit lists infection score, replicate 1 = 18.7; cell count, replicate 1 = 710. After knock-down of NKAIN (GeneID 37979) [DRSC04531] the results were infection score, replicate 1 = 9.14; cell count, replicate 1 = 6521. Silencing of NKAIN (GeneID 37979) [DRSC22470] resulted in: infection score, replicate 1 = 2.54; cell count, replicate 1 = 6693. Depletion of NKAIN (GeneID 37979) [DRSC29918] came out at: infection score, replicate 1 = 23.7; cell count, replicate 1 = 6195. Against TotM (GeneID 33764) [DRSC02355], the entry reads infection score, replicate 1 = 15.9; cell count, replicate 1 = 5893.

A stretch of the results above, for reference:
NKAIN (GeneID 37979) [DRSC04531]: infection score, replicate 1 = 9.14; cell count, replicate 1 = 6521
NKAIN (GeneID 37979) [DRSC22470]: infection score, replicate 1 = 2.54; cell count, replicate 1 = 6693

Further entries follow:
For CG8360 (GeneID 34122) [DRSC03085] the deposit lists infection score, replicate 1 = 2.66; cell count, replicate 1 = 6775. CG8360 (GeneID 34122) [DRSC26870] showed infection score, replicate 1 = 6.25; cell count, replicate 1 = 6225. Against Acp95EF (GeneID 47852) [DRSC14102] the deposit lists infection score, replicate 1 = 7.13; cell count, replicate 1 = 6259. With knock-down of CG14384 (GeneID 41588) [DRSC14842], the record shows infection score, replicate 1 = 3.92; cell count, replicate 1 = 6523. After knock-down of pwn (GeneID 44011) [DRSC06035], the screen gave infection score, replicate 1 = 2.61; cell count, replicate 1 = 6102. For pwn (GeneID 44011) [DRSC25224], the entry reads infection score, replicate 1 = 3.83; cell count, replicate 1 = 6557.
